Key:
Magnaporthe grisea = test: Rice blast disease pot test (Test Example A); conditions: for Rice blast disease pot test (control value): 250 ppm sprayed, 2.5 ml/pot, rice variety Sachikaze, degree of disease development 6 to 8 days after inoculation; for control value: Test Example A, rice blast disease pot test
Botrytis cinerea = test: Tomato gray mold pot test (Test Example B); conditions: for Tomato gray mold pot test (control value): 250 ppm sprayed, 2.5 ml/pot, tomato variety Oogata Fukuju, degree of disease development 2 to 3 days after inoculation; for control value: Test Example B, tomato gray mold pot test
[1] = system: Gray mold fungus (Botrytis cinerea); test: Gray mold anti-germ test (Test Example C); conditions: for Gray mold anti-germ test (rate of inhibition): 50 ppm/well, Czapek-dox broth, 25°C for 3 days, absorbance 600 nm; for rate of inhibition: Test Example C, gray mold anti-germ test
[2] = system: Fusarium blight fungus (Fusarium graminearum); test: Fusarium blight anti-germ test (Test Example D); conditions: for Fusarium blight anti-germ test (rate of inhibition): 50 ppm/well, Czapek-dox broth, 25°C for 3 days, absorbance 600 nm; for rate of inhibition: Test Example D, Fusarium blight anti-germ test
[3] = system: Anthracnose fungus (Glomerella cingulata); test: Anthracnose anti-germ test (Test Example E); conditions: for Anthracnose anti-germ test (rate of inhibition): 50 ppm/well, Czapek-dox broth, 25°C for 3 days, absorbance 600 nm; for rate of inhibition: Test Example E, anthracnose anti-germ test
[4] = system: Speckled leaf blotch fungus (Septoria tritici); test: Speckled leaf blotch anti-germ test (Test Example F); conditions: for Speckled leaf blotch anti-germ test (rate of inhibition): 50 ppm/well, Czapek-dox broth, 25°C for 3 days, absorbance 600 nm; for rate of inhibition: Test Example F, speckled leaf blotch anti-germ test

Row | SMILES | Rice blast disease pot test (control value) (Magnaporthe grisea) | Tomato gray mold pot test (control value) (Botrytis cinerea) | Gray mold anti-germ test (rate of inhibition) [1] | Fusarium blight anti-germ test (rate of inhibition) [2] | Anthracnose anti-germ test (rate of inhibition) [3] | Speckled leaf blotch anti-germ test (rate of inhibition) [4] | control value (Magnaporthe grisea) | control value (Botrytis cinerea) | rate of inhibition [1] | rate of inhibition [2] | rate of inhibition [3] | rate of inhibition [4]
1 | Cc1cccc2c1OC1(CCC1)N=C2n1cnc2c(C)c(C)ccc21 | H (H represents a control value or rate of inhibition of larger than 50%) | H (H represents a control value or rate of inhibition of larger than 50%) | H (H represents a control value or rate of inhibition of larger than 50%) | H (H represents a control value or rate of inhibition of larger than 50%) | H (H represents a control value or rate of inhibition of larger than 50%) | H (H represents a control value or rate of inhibition of larger than 50%) |  |  |  |  |  | 
2 | CCCC1(C)N=C(n2cnc3c(C)c(C)cnc32)c2cccc(F)c2O1 (stereo not drawn) |  |  |  |  |  |  | H (H represents a control value or rate of inhibition of larger than 50%) | H (H represents a control value or rate of inhibition of larger than 50%) | H (H represents a control value or rate of inhibition of larger than 50%) | H (H represents a control value or rate of inhibition of larger than 50%) | H (H represents a control value or rate of inhibition of larger than 50%) | H (H represents a control value or rate of inhibition of larger than 50%)
3 | Cc1c(Cl)cnc2c1ncn2C1=NC(C)(C)Sc2c(F)cccc21 | H (H represents a control value or rate of inhibition of larger than 50%) | H (H represents a control value or rate of inhibition of larger than 50%) | H (H represents a control value or rate of inhibition of larger than 50%) | H (H represents a control value or rate of inhibition of larger than 50%) | H (H represents a control value or rate of inhibition of larger than 50%) | L (L represents a control value or rate of inhibition of 50% or less) |  |  |  |  |  | 
4 | Cc1ccc2c(C3=NC(C)(C)Oc4c3ccc(F)c4C)cnn2c1C | H (H represents a control value or rate of inhibition of larger than 50%) | H (H represents a control value or rate of inhibition of larger than 50%) | H (H represents a control value or rate of inhibition of larger than 50%) | H (H represents a control value or rate of inhibition of larger than 50%) | H (H represents a control value or rate of inhibition of larger than 50%) | H (H represents a control value or rate of inhibition of larger than 50%) |  |  |  |  |  | 
5 | Cc1cccc2c1OC(C)(C)N=C2n1cnc2ccccc21 | H (H represents a control value or rate of inhibition of larger than 50%) | H (H represents a control value or rate of inhibition of larger than 50%) | H (H represents a control value or rate of inhibition of larger than 50%) | L (L represents a control value or rate of inhibition of 50% or less) | H (H represents a control value or rate of inhibition of larger than 50%) | L (L represents a control value or rate of inhibition of 50% or less) |  |  |  |  |  | 
6 | Cc1ccc2c(C3=NC(C)(C)Oc4c3ccc(F)c4F)cnn2c1C | H (H represents a control value or rate of inhibition of larger than 50%) | H (H represents a control value or rate of inhibition of larger than 50%) | H (H represents a control value or rate of inhibition of larger than 50%) | H (H represents a control value or rate of inhibition of larger than 50%) | H (H represents a control value or rate of inhibition of larger than 50%) | L (L represents a control value or rate of inhibition of 50% or less) |  |  |  |  |  | 
7 | Cc1ccc2c(c1)C(n1cnc3c(C)c(C)ccc31)=NC(C)(C)O2 | H (H represents a control value or rate of inhibition of larger than 50%) | H (H represents a control value or rate of inhibition of larger than 50%) | H (H represents a control value or rate of inhibition of larger than 50%) | H (H represents a control value or rate of inhibition of larger than 50%) | H (H represents a control value or rate of inhibition of larger than 50%) | H (H represents a control value or rate of inhibition of larger than 50%) |  |  |  |  |  | 
8 | CC1(C)N=C(n2cnc3c(Cl)cccc32)c2ccc(Br)cc2O1 | H (H represents a control value or rate of inhibition of larger than 50%) | L (L represents a control value or rate of inhibition of 50% or less) | L (L represents a control value or rate of inhibition of 50% or less) | L (L represents a control value or rate of inhibition of 50% or less) | L (L represents a control value or rate of inhibition of 50% or less) | L (L represents a control value or rate of inhibition of 50% or less) |  |  |  |  |  | 
9 | CCC1(C)N=C(c2cnn3cc(C)ccc23)c2ccccc2O1 (stereo not drawn) |  |  |  |  |  |  | H (H represents a control value or rate of inhibition of larger than 50%) | H (H represents a control value or rate of inhibition of larger than 50%) | H (H represents a control value or rate of inhibition of larger than 50%) | H (H represents a control value or rate of inhibition of larger than 50%) | H (H represents a control value or rate of inhibition of larger than 50%) | H (H represents a control value or rate of inhibition of larger than 50%)
10 | Cc1cccc2c1OC(C)(C)N=C2c1cnc2c(C)c(C)ccn12 | H (H represents a control value or rate of inhibition of larger than 50%) | H (H represents a control value or rate of inhibition of larger than 50%) | H (H represents a control value or rate of inhibition of larger than 50%) | H (H represents a control value or rate of inhibition of larger than 50%) | H (H represents a control value or rate of inhibition of larger than 50%) | H (H represents a control value or rate of inhibition of larger than 50%) |  |  |  |  |  | 
11 | Cc1cccc2c1SC(C)(C)N=C2n1cnc2c(C)c(C)ccc21 | H (H represents a control value or rate of inhibition of larger than 50%) | H (H represents a control value or rate of inhibition of larger than 50%) | H (H represents a control value or rate of inhibition of larger than 50%) | H (H represents a control value or rate of inhibition of larger than 50%) | H (H represents a control value or rate of inhibition of larger than 50%) | H (H represents a control value or rate of inhibition of larger than 50%) |  |  |  |  |  | 
12 | CCCC1(C)N=C(n2cnc3c(C)c(Br)cnc32)c2ccccc2O1 (stereo not drawn) |  |  |  |  |  |  | H (H represents a control value or rate of inhibition of larger than 50%) | H (H represents a control value or rate of inhibition of larger than 50%) | H (H represents a control value or rate of inhibition of larger than 50%) | H (H represents a control value or rate of inhibition of larger than 50%) | H (H represents a control value or rate of inhibition of larger than 50%) | H (H represents a control value or rate of inhibition of larger than 50%)
13 | COc1cccc2c1OC(C)(C)N=C2n1cnc2c(C(F)(F)F)cccc21 | H (H represents a control value or rate of inhibition of larger than 50%) | H (H represents a control value or rate of inhibition of larger than 50%) | L (L represents a control value or rate of inhibition of 50% or less) | L (L represents a control value or rate of inhibition of 50% or less) | L (L represents a control value or rate of inhibition of 50% or less) | L (L represents a control value or rate of inhibition of 50% or less) |  |  |  |  |  | 
14 | Cc1cc(C)c2c(c1)C(n1cnc3c(Cl)cccc31)=NC(C)(C)O2 | H (H represents a control value or rate of inhibition of larger than 50%) | L (L represents a control value or rate of inhibition of 50% or less) | L (L represents a control value or rate of inhibition of 50% or less) | L (L represents a control value or rate of inhibition of 50% or less) | L (L represents a control value or rate of inhibition of 50% or less) | L (L represents a control value or rate of inhibition of 50% or less) |  |  |  |  |  | 

Reference: EP4821928A1, “BICYCLIC HETEROCYCLIC COMPOUND AND FUNGICIDE FOR AGRICULTURAL AND HORTICULTURAL USE CONTAINING SAME AS ACTIVE INGREDIENT” (dated 2026)
